Compound potency records, mixed from different reports. Data source: NIAID ChemDB in PubChem.

Common to all: whole-cell or culture tests; organism: Cryptococcus neoformans

a–b is a range or a potency band. ECn: concentration that inhibits the pathogen or its effect by n%. MIC50, MIC90 and the like: level of inhibition, or share of isolates inhibited. Blank or dashed fields: not listed here. Rows are shuffled and stem from different studies.

SMILES | read-out | method | strain | value
CC(=O)N1CCN(c2ccc(OC[C@H]3CO[C@](Cn4ccnc4)(c4ccc(Cl)cc4Cl)O3)cc2)CC1 | MIC | - | - | 1 µg/mL
CN(Cc1ccc(C(C)(C)C)cc1)Cc1cccc2ccccc12 | MIC | - | 4 strains | 1.17 µg/mL
CC1=C2[C@H]3OC(=O)[C@@H](C)[C@@H]3[C@@H](O)C[C@@]2(C)C=CC1=O | MIC50 | - | - | 0.21–16 µg/mL
CO[C@H]1C[C@H](O[C@H]2CC[C@@]3(C)C(=CC[C@H]4C5=CC(=O)[C@@H]6[C@@H](C)OC(=O)[C@]56CC[C@@H]43)C2)O[C@H](C)[C@H]1O | MIC | broth dilution / turbidity | IP 90526 | 50 µg/mL
O=[N+]([O-])c1ccc2c(c1)CCc1[se]nnc1-2 | MIC | - | - | 3.12 µg/mL
C[C@@H]1O[C@@H](OC2[C@H](O[C@H]3CC[C@@]4(C)[C@@H](CC[C@]5(C)[C@@H]4CC=C4[C@@H]6CC(C)(C)CC[C@@]6(C(=O)O)CC[C@]45C)[C@]3(C)CO)OC[C@H](O)[C@@H]2O)[C@H](O)[C@H](O[C@@H]2O[C@H](CO)[C@@H](O)[C@H](O)[C@H]2O)[C@H]1O | MIC | - | KCTC 7224 | >200 µg/mL
C[C@@H]1CC[C@@]2(OC1)O[C@H]1C[C@H]3[C@@H]4CC=C5C[C@@H](O[C@@H]6O[C@H](CO)[C@H](O[C@@H]7O[C@@H](C)[C@H](O)[C@@H](O)[C@H]7O)[C@@H](O)[C@H]6O[C@@H]6O[C@@H](C)[C@H](O)[C@@H](O)[C@H]6O)CC[C@]5(C)[C@H]4CC[C@]3(C)[C@H]1[C@@H]2C | MIC | - | - | ≥20 µg/mL
C[C@@H]1[C@H](O)[C@@H](C)/C=C/C=C/CC/C=C/C=C/C=C/C=C/C(O[C@H]2O[C@H](C)[C@@H](O)[C@H](N)[C@@H]2O)CC2O[C@](O)(CC(O)C(O)CCC(O)CC(O)CC(O)CC(=O)O[C@H]1C)CC(O)C2C(=O)O | MIC | broth dilution / turbidity | IP 90526 | 12.5 µg/mL
C[C@H](c1ncncc1F)[C@](O)(Cn1cncn1)c1ccc(F)cc1F | MIC80 | broth dilution | ATCC | 0.18 µM
COc1cc(NC(C)CCCN)c2ncccc2c1 | MIC50 | - | - | 0.002–2 µg/mL
CC(=O)OC1C=COC=C2CC34SSC5(CC6=COC=CC(OC(C)=O)C6N5C3=O)C(=O)N4C21 | EC50 | - | E138 | 10 µg/mL
CO[C@H]1C[C@H](O[C@H]2CC[C@@]3(C)C(=CC[C@H]4C5=CC(=O)[C@@H]6[C@@H](C)OC(=O)[C@]56CC[C@@H]43)C2)O[C@H](C)[C@H]1O[C@H]1C[C@H](OC)[C@H](O[C@H]2C[C@H](OC)[C@H](O[C@@H]3C[C@@H](OC)[C@@H](O)[C@H](C)O3)[C@@H](C)O2)[C@@H](C)O1 | MIC | broth dilution / turbidity | IP 90526 | 100 µg/mL
N#[N+]c1nc(-c2ccc(Cl)cc2Cl)[nH]c1C(=O)N1CCCC1 | MIC | - | L29 | 50 µg/mL
c1ccc2[nH]cnc2c1 | EC50 | - | IU8698 | <4 µg/mL
C[C@@H]1O[C@@H](OC2[C@H](O[C@H]3CC[C@@]4(C)[C@@H](CC[C@]5(C)[C@@H]4CC=C4[C@@H]6CC(C)(C)CC[C@]6(C(=O)O[C@@H]6O[C@H](COC7O[C@H](CO)[C@@H](O[C@@H]8O[C@@H](C)[C@H](O)[C@@H](O)[C@H]8O)[C@H](O)[C@H]7O)[C@@H](O)[C@H](O)[C@H]6O)CC[C@]45C)[C@]3(C)CO)OC[C@H](O)[C@@H]2O)[C@H](O)[C@H](O)[C@H]1O | MIC | - | KCTC 7224 | >200 µg/mL
C=C(CCC1(OC)O[C@H]2C[C@H]3[C@@H]4CC=C5C[C@@H](O)[C@H](O)[C@@H](O[C@@H]6OC[C@@H](O)[C@H](O)[C@H]6O)[C@]5(C)[C@H]4CC[C@]3(C)[C@H]2[C@@H]1C)CO[C@@H]1O[C@H](CO)[C@@H](O)[C@H](O)[C@H]1O | MIC | - | - | ≥20 µg/mL
CCCOc1ccc2nc(NC(=O)OC)[nH]c2c1 | EC50 | - | IU4 | <3.2 µg/mL
COc1cc(O)c2c(c1)C(=O)c1c(cc3c(c1O)-c1c(cc(C)c(C(=O)N[C@H](CO)C(=O)O)c1O)[C@H](O[C@@H]1O[C@H](C)[C@H](O)[C@H](O)[C@H]1O)[C@H]3O)C2=O | MIC | - | IAM 4514 | 3.1 µg/mL
C=C1CO[C@@]2(O[C@H]3C[C@H]4[C@@H]5CC=C6C[C@@H](O)[C@H](O)[C@@H](O[C@@H]7O[C@H](CO)[C@H](O)[C@H](O)[C@H]7O)[C@]6(C)[C@H]5CC[C@]4(C)[C@H]3[C@@H]2C)[C@@H](O)C1 | MFC | - | - | ≥20 µg/mL
c1ccc2c(c1)CCc1[se]nnc1-2 | MIC | - | - | 12.5 µg/mL
C[C@@H]1CC[C@@]2(OC1)O[C@H]1C[C@H]3[C@@H]4CC=C5C[C@@H](O)[C@H](O)[C@@H](O[C@@H]6OC[C@@H](O)[C@H](O)[C@H]6O[C@@H]6O[C@@H](C)[C@H](O)[C@@H](O)[C@H]6O)[C@]5(C)[C@H]4CC[C@]3(C)[C@@]1(O)[C@@H]2C | MIC | - | - | 10 µg/mL
O=C1N2C3C(=COC=CC3O)CC23SSC12CC1=COC=CC(O)C1N2C3=O | MIC | - | E138 | 1 µg/mL
N#[N+]c1nc(-c2ccc(Cl)cc2)[nH]c1C(=O)N1CCCC1 | MIC | - | L29 | 25 µg/mL
C[C@H](NC(=O)[C@H](Cc1ccccc1)NC(=O)[C@@H](N)CCCCN)C(=O)N[C@@H](CCCCN)C(=O)O | MIC | - | 32045 | >500 µg/mL
CO[C@H]1C[C@H](O[C@H]2[C@@H](OC)C[C@H](O[C@H]3[C@@H](OC)C[C@H](O[C@H]4CC[C@@]5(C)C(=CC[C@H]6C7=CC(=O)[C@@H]8[C@@H](C)OC(=O)[C@]78CC[C@@H]65)C4)O[C@@H]3C)O[C@@H]2C)O[C@H](C)[C@H]1O | MIC | broth dilution / turbidity | IP 90526 | 100 µg/mL
COc1cnc2c3c(nccc13)C1SC=CC1C2=O | MIC80 | - | - | >64 µg/mL
CO[C@H]1C[C@H](O[C@H]2CC[C@@]3(C)C(=CC[C@H]4C5=CC(=O)[C@@H]6[C@@H](C)OC(=O)[C@]56CC[C@@H]43)C2)O[C@H](C)[C@H]1O[C@H]1C[C@H](OC)[C@H](O[C@@H]2C[C@@H](OC)[C@@H](O[C@@H]3O[C@H](CO)[C@@H](O)[C@H](O)[C@H]3O)[C@H](C)O2)[C@@H](C)O1 | MIC | broth dilution / turbidity | IP 90526 | 25 µg/mL
COC(=O)Nc1nc2ccc(Sc3ccccc3)cc2[nH]1 | EC90 | - | 10 isolates | 0.015–0.033 µg/mL
C/C=C/C(C)=C/C(C)C(=O)CC1CC(CC(N)=O)CC(=O)O1 | MIC | - | KF-33 | >100 µg/mL
COc1cc(Cc2cnc(N)nc2N)cc(OC)c1OC | MIC | - | - | 0.06–64 µg/mL
N#[N+]c1nc(-c2cccc(Cl)c2)[nH]c1C(=O)N1CCCC1 | MIC | - | L29 | 100 µg/mL
O=[N+]([O-])C1Cc2[se]nnc2-c2ccccc21 | MIC | - | - | 12.5 µg/mL
Cc1ncc([N+](=O)[O-])n1CCO | MIC50 | - | - | 0.12–128 µg/mL
Cc1nc([N+]#N)c(C(=O)N2CCCC2)[nH]1 | MIC | - | L29 | 50 µg/mL

The last 5 rows once more:

SMILES	read-out	method	strain	value
COc1cc(Cc2cnc(N)nc2N)cc(OC)c1OC	MIC	-	-	0.06–64 µg/mL
N#[N+]c1nc(-c2cccc(Cl)c2)[nH]c1C(=O)N1CCCC1	MIC	-	L29	100 µg/mL
O=[N+]([O-])C1Cc2[se]nnc2-c2ccccc21	MIC	-	-	12.5 µg/mL
Cc1ncc([N+](=O)[O-])n1CCO	MIC50	-	-	0.12–128 µg/mL
Cc1nc([N+]#N)c(C(=O)N2CCCC2)[nH]1	MIC	-	L29	50 µg/mL